The values below come from US10463688B2, “Nylon-3 polymers active against Clostridium difficile” (priority 2015, dated 2019).

Test [1] deals with C. difficile vegetative cells (630Δerm strain). As to conditions: MH broth, 24 h at 37° C., anaerobic.
Test [2] shares this test system. The test can be described thus: microbe, parasite or virus in culture. The conditions noted are these: Clostridioides difficile, 24 h, read-out: MIC, minimum inhibitory concentration for vegetative cell growth.

Values after ≈ are worked out from the molar mass of the structure shown.

Turning to `CC[C@H](C)[C@H](NC(=O)[C@H](CCCCN)NC(=O)[C@H](CCC(=O)O)NC(=O)[C@H](CCCCN)NC(=O)[C@H](CO)NC(=O)[C@H](CCCCN)NC(=O)[C@H](CCCNC(=N)N)NC(=O)[C@H](Cc1ccccc1)NC(=O)[C@H](Cc1ccccc1)NC(=O)[C@H](CC(=O)O)NC(=O)CNC(=O)[C@H](CC(C)C)NC(=O)[C@@H](N)CC(C)C)C(=O)NCC(=O)N[C@@H](CCCCN)C(=O)N[C@@H](CCC(=O)O)C(=O)N[C@@H](Cc1ccccc1)C(=O)N[C@@H](CCCCN)C(=O)N[C@@H](CCCNC(=N)N)C(=O)N[C@H](C(=O)N[C@H](C(=O)N[C@@H](CCC(N)=O)C(=O)N[C@@H](CCCNC(=N)N)C(=O)N[C@H](C(=O)N[C@@H](CCCCN)C(=O)N[C@@H](CC(=O)O)C(=O)N[C@@H](Cc1ccccc1)C(=O)N[C@@H](CC(C)C)C(=O)N[C@@H](CCCNC(=N)N)C(=O)N[C@@H](CC(N)=O)C(=O)N[C@@H](CC(C)C)C(=O)N[C@H](C(=O)N1CCC[C@H]1C(=O)N[C@@H](CCCNC(=N)N)C(=O)N[C@H](C(=O)N[C@@H](CCC(=O)O)C(=O)N[C@@H](CO)C(=O)O)[C@@H](C)O)C(C)C)[C@@H](C)CC)C(C)C)[C@@H](C)CC` [LL-37], in test [1], the “MIC, minimum inhibitory concentration for vegetative cell growth” value was 10 µg/mL.

Regarding `CN[C@H](CC(C)C)C(=O)N[C@H]1C(=O)N[C@@H](CC(N)=O)C(=O)N[C@H]2C(=O)N[C@H]3C(=O)N[C@H](C(=O)N[C@H](C(=O)O)c4cc(O)cc(O)c4-c4cc3ccc4O)[C@H](O)c3ccc(c(Cl)c3)Oc3cc2cc(c3O[C@@H]2O[C@H](CO)[C@@H](O)[C@H](O)[C@H]2O[C@H]2C[C@](C)(N)[C@H](O)[C@H](C)O2)Oc2ccc(cc2Cl)[C@H]1O` [vancomycin], the MIC in test [2] amounted to 1 µg/mL (≈ 0.69 µM).
